Anti-infective test results gathered from many reports (values: NIAID ChemDB through PubChem).

Shared fields: tests on isolated targets

Rows are shuffled and stem from different studies. ICn is the concentration giving n% inhibition. Percent inhibition refers to the dose given; in toxicity tests it is the harm to the cells. An empty or dashed field is not shown.

O=c1oc(-c2cccc(F)c2)ns1 ; method: broth dilution / fluorescence ; target: Proteasome ; agent: Mycobacterium tuberculosis ; measure: IC50 ; result: 0.63 µM
Nc1nc(N)c2cc(COC(=O)c3cccc(-c4ccccc4)c3)ccc2n1 ; target: Dihydrofolate reductase ; agent: Mycobacterium avium ; measure: IC50 ; result: 0.056 µM
Cc1cn([C@H]2CC[C@@H](O)O2)c(=O)[nH]c1=O ; method: absorbance ; target: Thymidine monophosphate kinase ; agent: Mycobacterium tuberculosis ; measure: Ki ; result: 27 µM
O=C(O)c1c2n(c3cc(N4CCC(O)(c5ccc(Cl)cc5)CC4)c([N+](=O)[O-])cc3c1=O)CS2 ; method: gel ; target: DNA gyrase ; agent: Mycobacterium smegmatis ; strain: ATCC 14468 MC2 ; measure: IC50 ; result: >50 µg/mL
OC[C@H]1NC[C@@H](F)[C@@H]1O ; target: Arabinofuranosyltransferase ; agent: Mycobacterium tuberculosis ; measure: IC50 ; result: >4000 µM
Nc1nc(N)c2cc(COC(=O)C(c3ccccc3)c3ccccc3)ccc2n1 ; target: Dihydrofolate reductase ; agent: Mycobacterium avium ; measure: IC50 ; result: 3.6 µM
COc1c(N2CCN(C(=O)C3COc4ccccc4O3)CC2)c(F)c([N+](=O)[O-])c2c(=O)c(C(=O)O)cn(C3CC3)c12 ; method: gel ; target: DNA gyrase ; agent: Mycobacterium smegmatis ; strain: ATCC 14468 ; measure: IC50 ; result: >50 µM
O=c1oc(/C=C/C(F)(F)F)ns1 ; method: broth dilution / fluorescence ; target: Proteasome ; agent: Mycobacterium tuberculosis ; measure: IC50 ; result: 38 µM
O=c1[nH]c(=O)n([C@H]2C[C@H](O)[C@@H](CCc3nn[nH]n3)O2)cc1CO ; method: binding / absorbance ; target: TMPKmt ; agent: Mycobacterium tuberculosis ; measure: Ki ; result: >2400 µM
O=c1oc(-c2ccccc2)ns1 ; method: broth dilution / fluorescence ; target: Proteasome ; agent: Mycobacterium tuberculosis ; measure: IC50 ; result: 1.35 µM
O=C(O)[C@]1(O)C=C(c2ccccc2)[C@@H](O)[C@H](O)C1 ; target: Type II dehydroquinase ; agent: Mycobacterium tuberculosis ; measure: Ki ; result: 1 µM
Cc1cn([C@@H]2C[C@H](O)[C@@H](CNC(=S)Nc3ccc(Cl)c(C(F)(F)F)c3)O2)c(=O)[nH]c1=O ; method: absorbance ; target: TMPKmt ; agent: Mycobacterium tuberculosis ; measure: Ki ; result: 0.6 µM
OC[C@H](O)[C@H]1NC[C@H](F)[C@H]1O ; target: Arabinofuranosyltransferase ; agent: Mycobacterium tuberculosis ; measure: IC50 ; result: >4000 µM
C=CC(C)(C)c1c(OC)oc(-c2ccccc2)cc1=O ; tested at: 500 µM ; method: absorbance ; target: MurE ; agent: Mycobacterium tuberculosis ; measure: inhibition ; result: 77%
Cc1[nH+]c2ccccc2c(=O)n1NC(=O)C(=O)N/N=C/c1ccc(O)c(O)c1O ; tested at: 10 µM ; method: kinase activity / radiometric ; target: Protein kinase B ; agent: Mycobacterium tuberculosis ; measure: inhibition ; result: 91.5%
NNC(=O)c1ccncc1 ; tested at: 1000 µM ; target: NADH oxidase ; agent: Mycobacterium tuberculosis ; strain: H37Rv ; measure: inhibition ; result: 0%
Cc1cn(CCCCN2C(=O)c3cccc4cccc(c34)C2=O)c(=O)[nH]c1=O ; method: absorbance ; target: Thymidine monophosphate kinase ; agent: Mycobacterium tuberculosis ; measure: Ki ; result: 42 µM
O=C(O)c1cn2c(n1)CN(c1cc3c(cc1F)c(=O)c(C(=O)O)c1n3CS1)CC2 ; method: gel ; target: DNA gyrase ; agent: Mycobacterium smegmatis ; strain: ATCC 14468 MC2 ; measure: IC50 ; result: 15 µg/mL
CC(=O)c1c(C)c2cnc(Nc3ccc(N4CCN(C)CC4)cc3)nc2n(C2CCCC2)c1=O ; tested at: 10 µM ; method: kinase activity / radiometric ; target: Protein kinase B ; agent: Mycobacterium tuberculosis ; measure: inhibition ; result: 92.4%
O=C1NC(=O)C2C(N1)N(C[C@H](O)[C@H](O)[C@H](O)CO)C(=O)N2CCCCCOP(=O)(O)O ; target: Lumazine synthase ; agent: Mycobacterium tuberculosis ; measure: Ki ; result: 4.7 µM
CC(=O)NC1=C2C=CC=C3C(=O)N(C/C=C\Cn4cc(C)c(=O)[nH]c4=O)C(C=C1)C32 ; method: absorbance ; target: Thymidine monophosphate kinase ; agent: Mycobacterium tuberculosis ; measure: Ki ; result: 6 µM
CO[C@H]1/C=C/O[C@@]2(C)Oc3c(C)c(O)c4c(=O)c(c5oc6cc(N7CCN(CC(C)C)CC7)cc(=O)c6nc5c4c3=C2O)NC(=O)/C(C)=C\C=C\[C@H](C)[C@H](O)[C@@H](C)[C@@H](O)[C@@H](C)[C@H](OC(C)=O)[C@@H]1C ; target: RNA polymerase ; agent: Mycobacterium avium ; strain: N-265 ; measure: IC50 ; result: <0.5 µg/mL
NNC(=O)c1ccncc1 ; target: Catalase-peroxidase ; agent: Mycobacterium tuberculosis ; measure: Ki ; result: 4.3 µM
O=C(O)c1cnccn1 ; target: Fatty acid synthase I ; agent: Mycobacterium smegmatis ; measure: IC50 ; result: >600 µg/mL
Cc1cn(CC#CCN2C(=O)c3cccc4cccc(c34)C2=O)c(=O)[nH]c1=O ; method: absorbance ; target: Thymidine monophosphate kinase ; agent: Mycobacterium tuberculosis ; measure: Ki ; result: >100 µM
COc1cc(CCc2cnc3nc(N)nc(N)c3c2C)cc(OC)c1 ; target: Dihydrofolate reductase ; agent: Mycobacterium avium complex ; measure: IC50 ; result: 0.0015 µM
O=c1oc(/C=C/c2ccc(C(F)(F)F)cc2)ns1 ; method: broth dilution / fluorescence ; target: Proteasome ; agent: Mycobacterium tuberculosis ; measure: IC50 ; result: 0.64 µM
O=C(O)c1c2n(c3cc(N4CCN(C(c5ccccc5)c5ccc(Cl)cc5)CC4)c([N+](=O)[O-])cc3c1=O)CS2 ; method: gel ; target: DNA gyrase ; agent: Mycobacterium smegmatis ; strain: ATCC 14468 MC2 ; measure: IC50 ; result: 50 µg/mL
NCCCOc1ccc(Nc2ncc3ccc(=O)n(C4CCCC4)c3n2)cc1 ; method: kinase activity / radiometric ; target: Protein kinase B ; agent: Mycobacterium tuberculosis ; measure: IC50 ; result: 0.445 µM
Cc1cn([C@@H]2O[C@H](CO)[C@@H](CN=[N+]=[N-])[C@H]2O)c(=O)[nH]c1=O ; target: Thymidine monophosphate kinase ; agent: Mycobacterium tuberculosis ; measure: Ki ; result: >1000 µM
Nc1nc(N)c2cc(COC(=O)c3cc4ccccc4c4ccccc34)ccc2n1 ; target: Dihydrofolate reductase ; agent: Mycobacterium avium ; measure: IC50 ; result: 1 µM
Cc1cn([C@@H]2O[C@H](CO)[C@@H](CN)[C@H]2F)c(=O)[nH]c1=O ; target: Thymidine monophosphate kinase ; agent: Mycobacterium tuberculosis ; strain: H37Rv ; measure: Ki ; result: >1000 µM
Nc1nc(N)c2cc(COC(=O)c3cccc4ccccc34)ccc2n1 ; target: Dihydrofolate reductase ; agent: Mycobacterium avium ; measure: IC50 ; result: 0.078 µM
O=C1NC(=O)C2C(N1)N(C[C@H](O)[C@H](O)[C@H](O)CO)C(=O)N2CCCCC(F)(F)P(=O)(O)O ; target: Lumazine synthase ; agent: Mycobacterium tuberculosis ; measure: Ki ; result: 60 µM
Nc1nc(N)c2cc(COC(=O)c3ccccc3Cc3ccccc3)ccc2n1 ; target: Dihydrofolate reductase ; agent: Mycobacterium avium ; measure: IC50 ; result: 0.36 µM
COc1cc(Cc2cnc(N)nc2N)cc(OC)c1OCCCNc1ccc(S(=O)(=O)c2ccc(N)cc2C)cc1 ; target: Folate biosynthesis ; agent: Mycobacterium leprae ; measure: IC50 ; result: 10.4 µM

For reference, 3 entries again:

| structure | tested at | method | target | agent | strain | measure | result |
|---|---|---|---|---|---|---|---|
| O=c1oc(-c2cccc(F)c2)ns1 | - | broth dilution / fluorescence | Proteasome | Mycobacterium tuberculosis | - | IC50 | 0.63 µM |
| O=C(O)c1cnccn1 | - | - | Fatty acid synthase I | Mycobacterium smegmatis | - | IC50 | >600 µg/mL |
| Cc1cn([C@H]2CC[C@@H](O)O2)c(=O)[nH]c1=O | - | absorbance | Thymidine monophosphate kinase | Mycobacterium tuberculosis | - | Ki | 27 µM |